# Measured values as given in patent publication US20080312080A1 (priority 2006, published 2008).
# Test system: Aspergillus parasiticus NRRL 2999
# Experiment: Assay of inhibition activity of aflatoxin production
# Type: cell-based
# Conditions: total aflatoxins B1, B2, G1, G2 by ELISA; PD liquid medium, 0 to 20 μg/mL, 3 days at 27° C., triplicate
row,Substance,IC50 (50% inhibition concentration) of aflatoxin production
1,"(2R,3S)-3-amino-2-methyloctanoyl-(S)-3-aminooctanoyl-glycine",6.6 µg/mL
2,(S)-3-aminooctanoyl-(S)-3-aminodecanoyl-glycine,4.0 µg/mL
3,(S)-3-aminooctanoyl-(S)-3-aminooctanoyl-L-alanine,1.4 µg/mL
4,(S)-3-aminooctanoyl-(S)-3-aminooctanoyl-L-proline,0.5 µg/mL
5,(S)-3-aminooctanoyl-(S)-3-aminooctanoyl-glycine,2.5 µg/mL
6,(S)-3-aminooctanoyl-(S)-3-aminooctanoyl-sarcosine,2.9 µg/mL
7,(S)-3-aminooctanoyl-(S)-3-aminooctanoyl-β-alanine,3.7 µg/mL
8,dioctatin A,4.6 µg/mL
9,dioctatin B,5.1 µg/mL
